Pooled drug test results. Numbers come from NIAID ChemDB, via PubChem.

All rows: whole-cell or culture tests; agent: HIV-1; measure: fold resistance

Blank or dashed fields: not listed here.

compound | strain or isolate | changes | method | cell line | value
CCCOC(=O)c1cc(NC(=S)OC(C)C)ccc1Cl | - | RT-Y181C | syncytia | CEM | 180
CC(C)c1c(Sc2ccccc2)n(COCc2ccccc2)c(=O)[nH]c1=O | IIIB (TIBO 82150) (RT-L100I) | RT-L100I | syncytia | CEM | 3.33
CCCCC(CC)COC(=O)c1cc(NC(=S)OC(C)C)ccc1Cl | - | RT-V106A | syncytia | CEM | 125
Cc1cc(S(N)(=O)=O)ccc1NC(=O)COc1ccc(Cl)cc1C(=O)c1cc(F)cc(F)c1 | HXB2 | RT-K101E | β-galactosidase | HeLa + HELA CD4+ | ~1
CC(C)=CCOc1cc(NC(=S)c2ccoc2C)ccc1Cl | Thiazolobenzimidazole-resistant (RT V108I) | RT-V108I | cytopathic effect / XTT | CEM + CEM-SS | 10
C/C=C/COc1cc(NC(=S)c2ccoc2C)ccc1Cl | - | RT-L100I | syncytia | CEM | 85
O=C(O[C@@H]1[C@H](OC(=O)c2ccccc2)[C@@H](CO)O[C@H]1n1cnc2c(N(C(=O)c3ccccc3)C(=O)c3ccccc3)ncnc21)c1ccccc1 | NL4-3 | M41L-L210W-T215Y | β-galactosidase | HeLaP4 | 0.38
CCOC(=O)C(C)Oc1cc(NC(=S)OC(C)C)ccc1Cl | - | RT-E138K | syncytia | CEM | 3.08
CC(C)c1c(Sc2ccccc2)n(COCCO)c(=O)[nH]c1=O | IIIB (TIBO 82150) (RT-L100I) | RT-L100I | syncytia | CEM | 10
C[C@@H]1CCO[C@H]2Cn3cc(C(=O)NCc4ccc(F)cc4F)c(=O)c(O)c3C(=O)N12 | NL4-3 | PI-resistant ARP-11807 (L33F/I47A/L63P/A71V/V82A) | luminescence | MT-4 | 2
CCCc1cc(=O)oc2c3c(c4c(c12)OC(C)(C)CC4)O[C@H](C)[C@@H](C)C3=O | - | RT-T139I | cytopathic effect / XTT | - | >68
CC(C)=CCOc1cc(NC(=S)c2ccsc2C)ccc1Cl | - | RT-Y181C | syncytia | CEM | 4.11
C=CCOC(=O)c1cc(NC(=S)OC(C)C)ccc1Cl | - | RT-E138K | syncytia | CEM | 3.5
Cc1cc(S(N)(=O)=O)ccc1NC(=O)COc1ccc(Cl)cc1C(=O)c1cc(Cl)cc(C#N)c1 | HXB2 | RT-P225H | β-galactosidase | HeLa + HELA CD4+ | ~1
CC(C)COC(=O)c1cc(NC(=S)OC(C)C)ccc1Cl | - | RT-V106A | syncytia | CEM | 85.9
Cc1occc1C(=S)Nc1ccc(Cl)c(/C=N/OCc2ccccc2)c1 | - | RT-L100I | syncytia | CEM | >3.33
CCCSC(=Nc1ccc(Cl)c(C(=O)OC(C)C)c1)OC(C)C | - | RT-L100I | syncytia | CEM | 15.3
Cc1ccsc1C(=S)Nc1ccc(Cl)c(/C=N/OC(C)(C)C)c1 | - | RT-E138K | syncytia | CEM | 5
Cc1occc1C(=O)Nc1ccc(Cl)c(/C=N/N2CCCC2)c1 | R82150-resistant (RT L100I) | RT-L100I | syncytia | CEM | <6.15
Cc1ccsc1C(=O)Nc1ccc(Cl)c(C(=O)OC2CCCCC2)c1 | - | RT-L100I | syncytia | CEM | 28.3
COCCOC(=S)Nc1ccc(Cl)c(C(=O)OC(C)C)c1 | - | RT-L100I | syncytia | CEM | 31.6
Cc1ccoc1C(=S)Nc1ccc(Cl)c(C(=O)OC(C)C)c1 | - | RT-V106A | syncytia | CEM | 51.6
CC(C)OC(=S)Nc1ccc(Cl)c(C(=O)OC2CCCC2)c1 | - | RT-L100I | syncytia | CEM | 37.2
CC(C)c1c(Sc2ccccc2)n(COCCO)c(=S)[nH]c1=O | IIIB | Nevirapine resistant (RT Y181C) | syncytia | CEM | 50
Cc1occc1C(=S)Nc1ccc(Cl)c(C(=O)OC(C)C)c1 | - | RT-L100I | syncytia | CEM | 85
Cc1ccc(C2CC2)c(-c2cc(F)c3c(c2C)CCCO3)c1[C@H](OC1CC1)C(=O)O | NL4-3 | PI-resistant ARP-4596 (L10R/M46I/L63P/V82T/I84V) | luminescence | MT-4 | 1
CC(=O)COc1cc(NC(=S)OC(C)C)ccc1Cl | - | RT-V106A | syncytia | CEM | 9.99
Cn1cccc1C(=S)Nc1ccc(Cl)c(/C=N/OC(C)(C)C)c1 | - | RT-Y188L | syncytia | CEM | >69.1
Cc1cc(C#N)cc(C(=O)c2cc(Cl)ccc2OCC(=O)Nc2ccc(S(N)(=O)=O)cc2C)c1 | HXB2 | RT-K103N P225H | β-galactosidase | HeLa + HELA CD4+ | ~1
CO/N=C/c1cc(NC(=S)OC(C)C)ccc1Cl | - | RT-V106A | syncytia | CEM | 100
Cc1ccsc1C(=S)Nc1ccc(Cl)c(C(=O)OC(C)C)c1 | - | RT-L100I | syncytia | CEM | 150
C=CCOC(=S)Nc1ccc(Cl)c(C(=O)OC(C)C)c1 | - | RT-E138K | syncytia | CEM | 36.9
CO/N=C/c1cc(NC(=S)c2ccoc2C)ccc1OC | - | RT-L100I | syncytia | CEM | 21.5
Cc1cc(C)cc(Sc2c(C(C)C)c(=O)[nH]c(=S)n2COCCO)c1 | IIIB | RT-Y181C | syncytia | CEM | 56.7
CCOC(=O)c1cc(NC(=S)OC(C)C)ccc1C | - | RT-V106A | syncytia | CEM | ≥3230
O=C(Nc1ccc(Cl)c(C(=O)OC2CCCCC2)c1)c1ccccc1F | - | RT-E138K | syncytia | CEM | 6.875
CC(C)[C@H](NC(=O)OCc1ccccn1)C(=O)N[C@@H](Cc1ccccc1)[C@@H](O)C[C@H](Cc1ccccc1)NC(=O)OCc1cccnc1 | NL4-3 | PR-I84V | p24 | MT-4 | 1
Cc1ccccc1C(=S)Nc1ccc(Cl)c(C(=O)OC(C)C)c1 | - | RT-V106A | syncytia | CEM | 31.2
CC(C)OC(=O)c1cc(NC(=S)N(C)C(C)C)ccc1Cl | - | RT-E138K | syncytia | CEM | >1
Cc1occc1C(=S)Nc1ccc(Cl)c(OC(=O)OC(C)C)c1 | - | RT-Y181C | syncytia | CEM | 0.273
CSc1ccc(NC(=S)OC(C)C)cc1C(=O)OC(C)C | - | RT-L100I | syncytia | CEM | 21.3
Cc1ccsc1C(=S)Nc1ccc(Cl)c(C(=O)OC(C(C)C)C(C)C)c1 | - | RT-K103N | syncytia | CEM | 961
CC(C)=CCOc1cc(NC(=S)c2ccsc2C)ccc1Cl | Costatolide-resistant (RT Y188H) | RT-Y188H | cytopathic effect / XTT | CEM + CEM-SS | 8.75
C/C=C/CSc1cc(NC(=S)c2ccsc2C)ccc1Cl | - | RT-V106A | syncytia | CEM | 4.59
CC1=C(C(=O)Nc2ccc(Cl)c(C(=O)OC(C)C)c2)SCCO1 | - | RT-V106A | syncytia | CEM | >1330
CCOC(=O)c1cc(NC(=S)c2ccoc2C)ccc1C | - | RT-Y181C | syncytia | CEM | 63.3
Cc1cc(OCCCS(N)(=O)=O)ccc1NC(=O)COc1ccc(Cl)cc1C(=O)c1cc(F)cc(C(F)(F)F)c1 | HXB2 | RT-K103N L100I | β-galactosidase | HeLa + HELA CD4+ | ~1
C#CCOc1cc(NC(=S)OC(C)C)ccc1Cl | - | RT-V106A | syncytia | CEM | 6.25

Lines come from different laboratories, so protocols vary. Fold resistance: result on the changed form divided by that on wild type.